In PubChem BioAssay AID488890 (Southern Research Specialized Biocontainment Screening …, 2010):
The other results are listed elsewhere or left out. Inconclusive results are not listed. The rule behind the calls is not given here.

assay: growth inhibition of non-replicating M. tuberculosis (AID 488890); details: Mycobacterium tuberculosis non-replicating, at 25 µM, stronger effect = higher value;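 note: plate controls were DMSO cells for no effect and high antibiotic wells for full effect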

Row | Compound | inhibition
1 | CSc1ccccc1C(=O)NCC1(N2CCCCC2)CCCCC1 | 28.6%
2 | CC(C)(C)OC(=O)N1CCC(N(C(=O)c2ccccc2)c2ccc(F)cc2)CC1 | -19.4%
3 | COc1ccc(C(=O)NCC2(N3CCCCC3)CCCCC2)c(OC)c1OC | -11.7%
4 | COc1ccc(C(=O)NCC2(N3CCCCC3)CCCCC2)cc1 | 29.9%
5 | O=C(NCC1(N2CCCCC2)CCCCC1)c1cccs1 | 19%
6 | O=C(NCC1(N2CCCCC2)CCCCC1)c1ccc(=O)[nH]c1 | 0.267%
7 | COc1ccc(Cl)cc1C(=O)NCC1(N2CCOCC2)CCCCC1 | 10.4%
8 | O=C(NCC1(N2CCCCC2)CCCCC1)c1ccc(Cl)s1 | 27.2%
9 | N#CC1(Nc2ccccc2)CCN(Cc2ccccc2)CC1 | -4.22%
10 | CCOC(=O)N1CCC(Nc2ccc(OC)cc2)CC1 | 31.6%
11 | Cc1cc(C)cc(N(C(=O)c2ccccc2)C2CCN(C(=O)OC(C)(C)C)CC2)c1 | 63.9%
12 | O=C(NCC1(N2CCCCC2)CCCCC1)c1ccc(Cl)nc1 | 33.6%
13 | O=C(NCC1(N2CCOCC2)CCCCC1)c1cc2ccccc2o1 | 44.5%
14 | CCOC(=O)N1CCC(Nc2ccc(F)cc2)CC1 | 77.5%
15 | O=C(NCC1(N2CCCCC2)CCCCC1)c1ccc(F)cc1 | 11.7%
16 | CCOc1ccc(C)cc1CN(CCCl)CCCl | -12.6%
17 | Cc1ccc(OCC(C)C)c(CN(CCCl)CCCl)c1 | 43.9%
18 | CCOC(=O)N1CCC(Nc2cccc(C)c2)CC1 | 3.24%
19 | COc1cc(C(=O)NCC2(N(C)C)CCCCC2)ccc1OC(F)F | -5.28%
20 | N#CC1(Nc2ccccc2)CCN(CCc2ccccc2)CC1 | -4.17%
21 | CCN1CCC(Nc2ccc(Cl)cc2)CC1 | -23.8%

Row | Compound | inhibition
22 | O=C(NCC1(N2CCCCC2)CCCCC1)c1cccc([N+](=O)[O-])c1 | 11%
23 | O=C(NCC1(N2CCCCC2)CCCCC1)c1ccc(OC(F)F)cc1 | 27.5%
24 | COc1cc(C(=O)NCC2(N3CCCCC3)CCCCC2)ccc1OC(F)F | 25.7%
25 | O=C(NCC1(N2CCOCC2)CCCCC1)c1cc(=O)[nH]c2ccccc12 | -15%
26 | CN1CCN(CCOC(=O)C(O)(c2ccccc2)c2ccccc2)CC1 | -0.26%
27 | COc1ccc(NC2CCN(C(=O)OC(C)(C)C)CC2)cc1 | 31.7%
28 | O=C(NCC1(N2CCCCC2)CCCCC1)c1cccc(C(F)(F)F)c1 | 0.6%
29 | O=C(NCC1(N2CCOCC2)CCCCC1)c1cc(F)c(F)cc1Cl | -0.01%
30 | COc1cc(OC)c(C(=O)NCC2(N(C)C)CCCCC2)cc1OC | 4.22%
31 | CC(C)c1ccc(NC2CCN(C(=O)OC(C)(C)C)CC2)cc1 | 34%
32 | CN(C)c1cccc(C(=O)NCC2(N3CCCCC3)CCCCC2)c1 | 19.7%
33 | COc1ccc(CN(CCCl)CCCl)cc1Cl | -13.1%
34 | CCCOc1ccc(C(=O)NCC2(N(C)C)CCCCC2)cc1OC | -2.11%
35 | CN1CCC(Nc2cccc(F)c2)CC1 | 4.83%
36 | O=C(NCC1(N2CCCCC2)CCCCC1)c1cncc(Br)c1 | 20.4%
37 | COc1ccc(C(=O)NCC2(N3CCOCC3)CCCCC2)cc1OC | -3.21%
38 | COc1cc(C(=O)NCC2(N3CCOCC3)CCCCC2)cc(OC)c1C | 28.8%
39 | O=C(NCC1(N2CCOCC2)CCCCC1)c1cc(Br)ccc1Cl | 35.5%
40 | O=C(OC1CN2CCC1CC2)C1c2ccccc2C=Cc2ccccc21 (stereo not drawn) | 6.35%
41 | CCOC(=O)N1CCC(Nc2ccc(C)cc2)CC1 | 15.4%
42 | N/C(=N\O)c1c(N)no[n+]1[O-] | 0.49%

Row | Compound | inhibition
43 | N#Cc1ccc(C(=O)NCC2(N3CCCCC3)CCCCC2)cc1 | -9.91%
44 | CC(C)(C)OC(=O)N1CCC(N(C(=O)c2ccccc2)c2ccc(Cl)cc2)CC1 | 14.1%
45 | CN(C)C1(CNC(=O)c2cccc(C#N)c2)CCCCC1 | -8.28%
46 | CCCN1CCC(Nc2cc(OC)cc(OC)c2)CC1 | -4.44%
47 | c1ccc(CN2CCC(Nc3ccccc3)CC2)cc1 | -10.1%
48 | Fc1ccccc1NC1CCN(Cc2ccccc2)CC1 | -5.87%
49 | Cc1ccc(C(=O)NCC2(N3CCCCC3)CCCCC2)o1 | 2.98%
50 | COc1cc(OC)cc(C(=O)NCC2(N3CCCCC3)CCCCC2)c1 | -11%
51 | CN(C)c1ccc(C(=O)NCC2(N3CCCCC3)CCCCC2)cc1 | -1.54%
52 | O=C(NCC1(N2CCCCC2)CCCCC1)c1ccco1 | 33.8%
53 | CCN1CCC(Nc2cccc(F)c2)CC1 | 6.61%
54 | O=C(O)C1(Nc2ccccc2)CCN(Cc2ccccc2)CC1 | -3.54%
55 | CC(C)(C)OC(=O)N1CCC(Nc2ccccc2)CC1 | 28.7%
56 | CCCOc1ccc(C(=O)NCC2(N(C)C)CCCCC2)cc1 | -4.85%
57 | CN1CCC(Nc2ccc(F)c(Cl)c2)CC1 | -5.52%
58 | CCOc1ncccc1C(=O)NCC1(N2CCOCC2)CCCCC1 | 8.5%
59 | CN1CCC(Nc2ccc(Cl)cc2)CC1 | -0.38%
60 | CCCOc1ccc(C)cc1CN(CCCl)CCCl | 11.7%
61 | COc1cc(OC)cc(C(=O)NCC2(N3CCOCC3)CCCCC2)c1 | 12.4%
62 | COc1cccc(C(=O)N(c2cc(C)cc(C)c2)C2CCN(C(=O)OC(C)(C)C)CC2)c1 | 5.45%
63 | CCC(CO)(C(=O)OC1CN2CCC1CC2)c1ccccc1 (stereo not drawn) | -17.4%
